Results from PMC11735809, “Structural basis of Spliced Leader RNA recognition by the Trypanosoma brucei cap-binding complex” (Nature Communications, 2025).

How the values were obtained:
[1] = system: TbCBC-trimer (TbCBP20-TbCBP110-TbCBP30) (Trypanosoma brucei); assay: EMSA; conditions: EMSA: 20 mM HEPES pH 7.5, 50 mM NaCl, 5 mM MgCl2, Tween (0.05% in RNA buffer), RNA stock 50 nM mixed 1:1, 30 min on ice, 6% native PAGE 4 C, recombinant protein, residues 1-187, label: none (SYBR Gold)
[2] = system: TbCBC-tetramer (TbCBP20-TbCBP110-TbCBP30-TbCBP66) (Trypanosoma brucei); assay: EMSA; conditions: binding independent of m7G, EMSA: 20 mM HEPES pH 7.5, 50 mM NaCl, 5 mM MgCl2, Tween (0.05% in RNA buffer), RNA stock 50 nM mixed 1:1, 30 min on ice, 6% native PAGE 4 C, recombinant protein, residues 1-187, label: none (SYBR Gold)
[3] = system: TbCBC-dimer (TbCBP20-TbCBP110) (Trypanosoma brucei); assay: EMSA; conditions: EMSA: 20 mM HEPES pH 7.5, 50 mM NaCl, 5 mM MgCl2, Tween (0.05% in RNA buffer), RNA stock 50 nM mixed 1:1, 30 min on ice, 6% native PAGE 4 C, recombinant protein, residues 1-187, label: none (SYBR Gold)
[4] = system: TbCBC-trimer (TbCBP20-TbCBP110-TbCBP30) (Trypanosoma brucei); assay: cryo-EM; conditions: 2.8 A, m7GTP moiety resolved, following nucleotides flexible; 5' cap4: m7Gppp, m6,6Am1, Am2, Cm3, m3Um4; recombinant protein; residues 1-187
[5] = similar affinity to cap0, 5' cap4: m7Gppp, m6,6Am1, Am2, Cm3, m3Um4
[6] = similar affinity to cap4, 5' m7Gppp cap (cap0)

## AACUAACGCUAUUAUUAGAACAGUUUCUGUACUAUAUUG [cap4-SLe]
[1]; [5]
  binding result: binds
[2]; 5' cap4: m7Gppp, m6,6Am1, Am2, Cm3, m3Um4
  binding result: binds
[3]; [5]
  binding result: binds

## AACUAACGCUAUUAUUAGAACAGUUUCUGUACUAUAUUG [OH-SLe (uncapped SL RNA exon, 39 nt)]
[1]; does not strongly interact
  binding result: binds more weakly
[2]
  binding result: binds
[3]; does not strongly interact
  binding result: binds more weakly

## AACUA [cap4 hexanucleotide m7Gpppm6,6AmpAmpCmpm3UmpA]
[4]
  binding result: binds

## AACUAACGCUAUUAUUAGAACAGUUUCUGUACUAUAUUG [cap0-SLe]
[1]; [6]
  binding result: binds
[2]; 5' m7Gppp cap (cap0)
  binding result: binds
[3]; [6]
  binding result: binds

For at least one entry, the source does not settle the construct or the ends of the probe. For some of these results: A weaker result is weaker than the reference pair of the same experiment. For some of these results: At least one verdict rests on a figure or table, not on a statement of the authors.
